Read-outs that look alike come from different tables or passages of the source. The source's definition of the ratio is not given here.
Assays:
Type in all cases: cell-based
Influenza B [1] = conditions: Initial Test, Neutral Red
Influenza A (H1N1) = conditions: Initial Test, Neutral Red
[2] = tested on: Parainfluenza Type 3 Virus; conditions: Initial Test, Neutral Red
Influenza B [3] = tested on: Influenza B

O=c1nc(NO)ccn1[C@@H]1O[C@H](CO)[C@@H](O)[C@H]1O [β-D-BS]
SI (Selectivity Index), Influenza B (Influenza B [1]): 133 | SI (Selectivity Index), Influenza A (H1N1) (Influenza A (H1N1)): 116 | SI (Selectivity Index), Parainfluenza Type 3 Virus [2]: 1

Nc1ccn([C@@H]2O[C@H](CO)C[C@H]2O)c(=O)n1 [β-D-AJ]
SI (Selectivity Index), Influenza B (Influenza B [1]): >3.3 | SI (Selectivity Index), Influenza A (H1N1) (Influenza A (H1N1)): >3.3 | SI (Selectivity Index), Influenza B (Influenza B [3]): 2

OC[C@H]1O[C@@H](n2cnc3c(Cl)ncnc32)[C@H](O)[C@@H]1O [β-D-DJ]
SI (Selectivity Index), Influenza B (Influenza B [1]): >4.5 | SI (Selectivity Index), Influenza B (Influenza B [3]): >10 | SI (Selectivity Index), Parainfluenza Type 3 Virus [2]: >1
